{"source": "PubChem BioAssay AID504582", "about": "(Broad Institute, 2011)", "note": "Only a part is listed here, and it is no random draw. Active and inactive are the calls of the source. Cut-off read from the data, not from the text of the source: active = growth rescue above about 28% (passing the limit was not always enough); inconclusive = no clear call, values can overlap the other calls."}
{"assay": "rescue of yeast from PfHsp40 toxicity, primary screen, S. cerevisiae, ATP luminescence (AID 504582);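 note: yeast W303a lacking pdr1 and pdr3 grown in galactose medium; growth measured after three days at 30 °C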", "details": "S. cerevisiae expressing PfHsp40, growth rescue, at 12.5 µM, active compounds read high"}
{"smiles": "O=[N+]([O-])c1cc([N+](=O)[O-])c(-c2ccn[nH]2)s1", "growth rescue": "inactive: 3.5%"}
{"smiles": "ClCCSc1nnc(-c2cccnc2)o1", "growth rescue": "inactive: 0.77%"}
{"smiles": "CC(C)c1ccc(OP(=O)(Nc2ccccn2)Oc2ccccc2F)cc1", "note": "(stereo not given)", "growth rescue": "inactive: 0.431%"}
{"smiles": "COC(=O)C1(C)COP(=O)(N2CCCCCC2)OC1", "note": "(stereo not given)", "growth rescue": "inactive: -0.927%"}
{"smiles": "CC1CCOC(=O)C=CC=CC(=O)OC2CC3OC4C5OC5(C)C(O)CC4(COC(=O)C1O)C2(C)C31CO1", "note": "(stereo not given)", "growth rescue": "inactive: -1.53%"}
{"smiles": "Cc1cc(SC(NC(=O)c2ccccc2)C(Cl)(Cl)Cl)nc(C(C)C)n1", "note": "(stereo not given)", "growth rescue": "inactive: -0.767%"}
{"smiles": "CCOC(=O)Nc1ccc([As](=O)(O)O)c(O)c1", "growth rescue": "inactive: 1.42%"}
{"smiles": "CC1CCNP(=O)(N(CCCl)CCCl)O1", "note": "(stereo not given)", "growth rescue": "inactive: 0.524%"}
{"smiles": "Cc1cc(SC(NC=O)C(Cl)(Cl)Cl)ncn1", "note": "(stereo not given)", "growth rescue": "inactive: -0.153%"}
{"smiles": "O=P(Nc1ccccn1)(c1cccc2ccccc12)c1cccc2ccccc12", "growth rescue": "inactive: -1.1%"}
{"smiles": "O=[N+]([O-])c1ccc(Nc2ccc(Oc3ccc([N+](=O)[O-])cc3[N+](=O)[O-])cc2)c([N+](=O)[O-])c1", "growth rescue": "inactive: 0.246%"}
{"smiles": "CCOC(=O)Nc1cccc([As](=O)(O)O)c1", "growth rescue": "inactive: 3.29%"}
{"smiles": "C=C(CC1CC(O)[C@]2(C)OC3CC4OC5C[C@]6(C)O[C@]7(C)CCC8OC9C[C@]%10(C)OC%11C(C)=CC(=O)OC%11CC%10OC9C[C@@H](C)C8OC7CC6O[C@]5(C)C/C=C\\C4OC3CC2O1)C(=O)O", "note": "(stereo not given in full)", "growth rescue": "inactive: -0.548%"}
{"smiles": "O=C(COc1ccccc1)OC1CN2CCC1CC2", "note": "(stereo not given)", "growth rescue": "inactive: 0.013%"}
{"smiles": "O=C(Nc1ccncc1[N+](=O)[O-])c1ccc([N+](=O)[O-])cc1[N+](=O)[O-]", "growth rescue": "inactive: -1.07%"}
{"smiles": "COP1(=S)c2c(C)nn(CCC#N)c2N=C(c2ccc(F)cc2)N1C", "note": "(stereo not given)", "growth rescue": "inactive: -0.628%"}
{"smiles": "C=C(COC(C)=O)CC1CC(O)[C@]2(C)OC3CC4OC5C[C@]6(C)O[C@]7(C)CCC8OC9C[C@]%10(C)OC%11C(C)=CC(=O)OC%11CC%10OC9C[C@@H](C)C8OC7CC6O[C@]5(C)C/C=C\\C4OC3CC2O1", "note": "(stereo not given in full)", "growth rescue": "inactive: -1.68%"}
{"smiles": "CCC(C)N(CC(C)C)C(=S)SC(NC(C)=O)C(Cl)(Cl)Cl", "note": "(stereo not given)", "growth rescue": "inactive: -0.236%"}
{"smiles": "O=C(OC1CN2CCC1CC2)c1cccc([N+](=O)[O-])c1", "note": "(stereo not given)", "growth rescue": "inactive: -2.18%"}
{"smiles": "CCOC(=O)c1ccc(NC(=O)C(C)(CCl)SC)cc1", "note": "(stereo not given)", "growth rescue": "inactive: 0.425%"}
